Columns and labels:
[1] = tested on: L. donovani promastigotes 1S (MHOM/SD/62/1S); assay: Antileishmanial resazurin fluorimetric assay on promastigotes; format: cell-based, Leishmania donovani; conditions: SI = CC50 (Raw cells)/IC50 (L. donovani)
Procedure: (§1) The cryopreserved chloroquine-sensitive (Pf3D7-(MRA-102)), the multi-resistant (PfDd2) of Plasmodium falciparum, and the promastigote form of Leishmania donovani strains were obtained from BEI Resources (https://www.beiresources.org/ (accessed on 16 February 2019)) and are routinely cultured at the Antimicrobial and Biocontrol Agents Unit, University of Yaoundé I.
Leishmania donovani promastiogtes were cultured in Medium 199 (Sigma, Darmstadt, Germany) supplemented with 10% Heat-Inactivated fetal Bovine Serum (HIFBS) (Sigma, Darmstadt, Germany) and 100 IU/mL penicillin/streptomycin. The culture was maintained in 75 cm^2 cell culture flask at 28 °C and sub-cultured every 72 h.
A stock solution was prepared at 100 mg/mL for each extract and fraction and at 50 mg/mL for isolated compound in 100% DMSO (Sigma–Aldrich, Munich, Germany). […]
The antileishmanial activity of crude extracts, derived fractions, and isolated compounds against cultured L. donovani promastigotes was evaluated using the resazurin fluorimetric assay as described by Siqueira-Neto et al. (2010). […] After an additional incubation for 44 h, plates were then read on a Magelan Infinite M200 fluorescence plate reader (Tecan, Männedorf, Switzerland) at excitation and emission wavelengths of 530 and 590 nm, respectively. […]

[2] = tested on: P. falciparum chloroquine-sensitive (Pf3D7); assay: Antiplasmodial SYBR green I based fluorescence assay, chloroquine-sensitive strain; format: cell-based, Plasmodium falciparum; conditions: SI = CC50 (Raw cells)/IC50 (Pf3D7)
Procedure: as §1, with “I. […]” for “I.”
Drug sensitivity assay was carried out in 96-well microtitration plates using the SYBR green I based fluorescence assay (Smilkstein et al., 2004). […]
The 96 wells flat-bottom assay plates with sorbitol-synchronized ring stage parasites (haematocrit: 1%, parasitaemia: 2%, 90 μL) were incubated in the presence of 10 µL of pre-diluted extracts, fractions, isolated compounds, and reference drugs [Chloroquine and Artemisinin (Sigma–Aldrich, Munich, Germany)] at different triplicate concentrations (100 µg/mL–0.16 µg/mL for extract/fractions and 50 µg/mL–0.08 µg/mL for compounds). […] Fluorescence was measured using the microplate reader Infinite M200 (Tecan) at an excitation and emission wavelength of 485 and 538 nm, respectively. […]

| Compound | L. donovani Promastigote SI [1] | SI_Pf3D7 [2] |
| --- | --- | --- |
| COc1c(O)cc2c(=O)oc3c(OC)c(O)cc4c(=O)oc1c2c34 [3,3′-Dimethylellagic acid (4), 3,3′-dimethylellagic acid] | >61.96 |  |
| CCCCCCCC=CCCCCCCCCCCCCCC(O)C(O)C(COC1OC(CO)C(O)C(O)C1O)NC(=O)C(O)CCCCCCCCCCCCCC [Antroklaicerebroside (1), (2S,3S,4R,2′R,18E)N-((-3,4-dihydroxy-β-D-gluco-pyranosyl)oxy)hexacos-18-en-2-yl)-2-hydroxyhexadecanamide] | >80.78 | greater than 11 |

Reference: article PMC10059057, “Antileishmanial and Antiplasmodial Activities of Secondary Metabolites from the Root of Antrocaryon klaineanum Pierre (Anacardiaceae)” (Molecules, 2023)
